Experimental findings from publication PMC10818719 (Viruses, 2023) are described below.

This series concerns MDBK cells.

Structures are written as SMILES. Read-outs that look alike come from different tables or passages of the source.

Regarding `CN(C)c1ccc2nc3ccc(=[N+](C)C)cc-3sc2c1` [MB, Methylene blue], the “Hill slope (m)” value (24 h incubation) amounted to 3.98, the “Hill slope (m)” value (48 h incubation) turned out to be 1.00 and the “Hill slope (m)” value (72 h incubation) is given as 2.52.

As to `Cc1cc2nc3ccc(N(C)C)cc3[s+]c2cc1N.[Cl-]` [TBO, toluidine blue O], the “Hill slope (m)” value runs as follows: (24 h incubation) 1.88; (48 h incubation) 0.098; (72 h incubation) 0.075.
